From PMC6957213
Protein sequences can lack the tags named with them.

System: T1, GdhR (Neisseria gonorrhoeae FA19)
T1 sequence (looked up): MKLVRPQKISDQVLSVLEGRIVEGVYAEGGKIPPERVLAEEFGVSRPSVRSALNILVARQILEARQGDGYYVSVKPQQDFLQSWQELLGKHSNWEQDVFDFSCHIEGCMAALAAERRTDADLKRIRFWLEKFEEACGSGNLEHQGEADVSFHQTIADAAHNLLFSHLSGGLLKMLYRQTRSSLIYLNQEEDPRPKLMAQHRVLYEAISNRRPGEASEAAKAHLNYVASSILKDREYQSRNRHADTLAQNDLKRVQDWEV
Test: DNase I footprinting
Settings: 0.4-6.0 ug GdhR, protects +6 to +48; recombinant protein; residues 1-259; label: 5' 6-FAM (coding strand), 5' HEX (template strand); probe letters rebuilt from the primers and the genome

Sequence: GTGGACGGGGACGGCGCGGTATTCGTGCCGCCGGAAGAATGCTGAAAATGCCGTCTGAAGCCTTTCGGGCGGCTTTTTCTACACGCCCCTTTCCCACACTCCCTCCGCCGCATCATCACCATCCTTAACCCGCATTAATAGCCATTATCGATAAAATGCTTGACCGATTACATAAGATTACGTAAAGTGTGCAAACGCATAATAATTGGTCTTACCAATTTATCTTTTAACCAAAATATCGGGTGTGCGGGATTTGAACGTCTTTCCAAACCTCGACGCGCCTTATGATGCAAATGCCTAAAAAGGATTCGTTATGGCACTTTTCCTCAGCATATTCCCCATCGTCCTGCTGATTTGGCTGATGGTGAAAAAAAACAGTATGCCTTCCTACGTCGCACTGCCGATTACCGCAGTGCTGATTTACGCCATCAAACTTTTCTACTTCGGCGATGCGGGAATGCTGCTCAACGCCACCGCCGCTTCCGGCCTCGTCAAAACGCTCACGCCGATTACCGTGATTTTCGGCGCGATTATGTTCAACCGTATGATGGAAACCACGGGCTGCATCGATGT (double strand) [lctP promoter footprint probe]
- binding result: binds
